Test system: D54MG glioma cells
Test: 125[I]-chlorotoxin binding, Scatchard analysis
Design: species or system human

For chlorotoxin, the “high affinity Ctx binding sites per cell” value was “approximately 1,300 sites per cell” and the “low affinity binding sites per cell” value was ~13,300 sites per cell.

Source: patent US6870029B2, “Method of diagnosing and treating gliomas” (priority 1995, dated 2005)
